Results of unrelated studies side by side (data: NIAID ChemDB).

Common to all: tests in culture; agent: Candida albicans; read-out: zone

Zones are inhibition diameters on agar.

smiles	strain or isolate	tested at	read by	value
C=CC(C)(C)c1cc(C2CC(=O)c3c(cc(O)c(CC=C(C)C)c3O)O2)c(O)cc1O	hemoculture isolate 15564	2 mg/mL	agar diffusion / agar	16 mm
c1ccc(-c2nnc(CN3CCC(n4nc5ccccc5n4)CC3)o2)cc1	-	300 µg/mL	-	3.12 mm
COc1cc(C2C=C(c3ccc4c(c3)OCO4)NC(SCC(=O)Nc3ccc(Cl)cc3)N2)cc(OC)c1OC	DSM 70014	1 mg/mL	agar diffusion / agar	14 mm
Cn1c(SCCN2CCCCC2)nnc1C12CC3CC(CC(C3)C1)C2	IFO 0583	200 µg/disc	agar diffusion	<10 mm
CN1CCN(Cn2nc(C34CC5CC(CC(C5)C3)C4)n(/N=C/c3c(F)cccc3F)c2=S)CC1	IFO 3007	200 µg/disc	agar diffusion	<10 mm
S=c1n(CN2CCN(COc3ccc(COc4ccccc4)cc3)CC2)nc(C23CC4CC(CC(C4)C2)C3)n1-c1ccccc1	IFO 0583	200 µg/disc	agar diffusion	<10 mm
CC1(C)CCC2=C(C1=O)C(c1ccc(C3C4=C(CCC(C)(C)C4=O)OC4=C3C(=O)C(C)(C)CC4)cc1)C1=C(CCC(C)(C)C1=O)O2	ATCC 10231	140 µg/disc	agar diffusion	0 mm
COc1cc(C2CC(c3ccc4c(c3)OCO4)=NN2C=O)cc(OC)c1OC	DSM 70014	1 mg/mL	agar diffusion / agar	14 mm
CC1(C)CC(=O)C2=C(C1)OC1=C(C(=O)CC(C)(C)C1)C2c1cccc(C2C3=C(CC(C)(C)CC3=O)OC3=C2C(=O)CC(C)(C)C3)c1	ATCC 10231	40 µg/disc	agar diffusion	7 mm
COc1ccc(C2=NN(c3ccccc3)C(c3cc(OC)c(OC)c(OC)c3)C2)cc1OC	DSM 70014	1 mg/mL	agar diffusion / agar	14 mm
COc1ccc(-c2nc(S(C)(=O)=O)nc(N)c2C#N)cc1	MTCC 227	100 µg/mL	agar diffusion	20 mm
COc1cccc(-c2nnc(CN3CCC(n4nc5ccccc5n4)CC3)o2)c1	-	600 µg/mL	-	5.01 mm
COc1ccc(C2=CC(c3cc(OC)c(OC)c(OC)c3)N=C(SCC(C)=O)N2)cc1OC	DSM 70014	1 mg/mL	agar diffusion / agar	14 mm
S=c1n(CN2CCN(Cc3ccccc3)CC2)nc(C23CC4CC(CC(C4)C2)C3)n1-c1ccccc1	IFO 0583	200 µg/disc	agar diffusion	<10 mm
CS(=O)(=O)c1nc(N)c(C#N)c(/C=C\c2ccccc2)n1	MTCC 227	25 µg/mL	agar diffusion	17 mm
Fc1ccccc1/C=N/n1c(C23CC4CC(CC(C4)C2)C3)n[nH]c1=S	IFO 3007	200 µg/disc	agar diffusion	<10 mm
CS(=O)(=O)c1nc(N)c(C#N)c(-c2ccc(Cl)cc2)n1	MTCC 227	50 µg/mL	agar diffusion	18 mm
CC(C)(C)c1cc(-c2nnc(CN3CCC(n4nc5ccccc5n4)CC3)o2)cc(C(C)(C)C)c1	-	600 µg/mL	-	7.08 mm
CC1(C)CC(=O)C2=C(C1)OC1=C(C(=O)CC(C)(C)C1)C2c1ccc(C2C3=C(CC(C)(C)CC3=O)OC3=C2C(=O)CC(C)(C)C3)cc1	ATCC 10231	40 µg/disc	agar diffusion	9 mm
C[C@H]1[C@H](O)[C@@H](C)/C=C/C=C/C=C/C=C/C=C/C=C/C=C/[C@H](O[C@@H]2O[C@H](C)[C@@H](O)[C@H](N)[C@@H]2O)C[C@@H]2O[C@](O)(C[C@@H](O)C[C@@H](O)CC[C@H](O)[C@@H](O)C[C@@H](O)CC(=O)O[C@H]1C)C[C@H](O)[C@H]2C(=O)O	MTCC	100 µg/mL	agar diffusion	20 mm
CCN1CCN(Cn2nc(C34CC5CC(CC(C5)C3)C4)n(-c3ccccc3)c2=S)CC1	IFO 0583	200 µg/disc	agar diffusion	<10 mm
CSC1=NC(c2ccc(Cl)cc2)C(C#N)=C(N)N1	MTCC 227	100 µg/mL	agar diffusion	20 mm
FC(F)(F)c1cccc(N2CCN(Cn3nc(C45CC6CC(CC(C6)C4)C5)n(/N=C/c4c(Cl)cccc4Cl)c3=S)CC2)c1	IFO 3007	200 µg/disc	agar diffusion	<10 mm
C/C=C/C1=CC2=CC(=O)[C@](C)(OC(=O)c3c(C)cc(O)cc3OC)C(=O)C2=CO1	ATCC 64548	20 µg/disc	agar diffusion	0 mm
CN1CCN(c2nc(Nc3ccc(C#N)c(C(F)(F)F)c3)nc(Oc3cccc4cccnc34)n2)CC1	MTCC 183	100 µg/disc	agar diffusion / agar	21 mm
CCOC(=O)C1CCN(Cn2nc(C34CC5CC(CC(C5)C3)C4)n(/N=C/c3c(F)cccc3F)c2=S)CC1	IFO 3007	200 µg/disc	agar diffusion	14 mm
Brc1ccccc1-c1nnc(CN2CCC(n3nc4ccccc4n3)CC2)o1	-	1200 µg/mL	-	16.75 mm
CN(C)c1ccc(/C=N/n2c(C34CC5CC(CC(C5)C3)C4)n[nH]c2=S)cc1	IFO 3007	200 µg/disc	agar diffusion	<10 mm
COc1cc(C2C=C(c3ccc4c(c3)OCO4)NC(=S)N2)cc(OC)c1OC	DSM 70014	1 mg/mL	agar diffusion / agar	17 mm
N#Cc1ccc(Nc2nc(Oc3cccc4cccnc34)nc(N3CCN(c4ccccn4)CC3)n2)cc1C(F)(F)F	MTCC 183	100 µg/disc	agar diffusion / agar	28 mm
CS(=O)(=O)c1nc(N)c(C#N)c(-c2ccc(O)cc2)n1	MTCC 227	50 µg/mL	agar diffusion	17 mm
COc1ccc(C2CC(=O)C3=C(C2)OC2=C(C(=O)CC(c4ccc(OC)c(OC)c4)C2)C3c2ccc(C3C4=C(CC(c5ccc(OC)c(OC)c5)CC4=O)OC4=C3C(=O)CC(c3ccc(OC)c(OC)c3)C4)cc2)cc1OC	ATCC 10231	40 µg/disc	agar diffusion	7 mm
N#Cc1ccc(Nc2nc(Oc3cccc4cccnc34)nc(N3CCCCC3)n2)cc1C(F)(F)F	MTCC 183	100 µg/disc	agar diffusion / agar	23 mm
CCOC(=O)C1CCN(Cn2nc(C34CC5CC(CC(C5)C3)C4)n(/N=C/c3ccccc3Cl)c2=S)CC1	IFO 3007	200 µg/disc	agar diffusion	<10 mm
CC1(C)CCC2=C(C1=O)C(c1cccc(C3C4=C(CCC(C)(C)C4=O)OC4=C3C(=O)C(C)(C)CC4)c1)C1=C(CCC(C)(C)C1=O)O2	ATCC 10231	140 µg/disc	agar diffusion	9 mm
Clc1ccccc1C(c1ccccc1)(c1ccccc1)n1ccnc1	IFO 3007	100 µg/disc	agar diffusion	21 mm
N#Cc1ccc(Nc2nc(Oc3cccc4cccnc34)nc(N3CCOCC3)n2)cc1C(F)(F)F	MTCC 183	100 µg/disc	agar diffusion / agar	23 mm

A second listing of 3 rows from above:

smiles	strain or isolate	tested at	read by	value
Brc1ccccc1-c1nnc(CN2CCC(n3nc4ccccc4n3)CC2)o1	-	1200 µg/mL	-	16.75 mm
S=c1n(CN2CCN(COc3ccc(COc4ccccc4)cc3)CC2)nc(C23CC4CC(CC(C4)C2)C3)n1-c1ccccc1	IFO 0583	200 µg/disc	agar diffusion	<10 mm
CC(C)(C)c1cc(-c2nnc(CN3CCC(n4nc5ccccc5n4)CC3)o2)cc(C(C)(C)C)c1	-	600 µg/mL	-	7.08 mm

An empty or dashed field is not shown. Lines come from different laboratories, so protocols vary.